A value given as a limit tells only on which side of the number the result lay.

The data set has as its system FAR-1. The data set can be described thus: Fluorescence titration, FAR•analyte complex formation in homogeneous solution. It counts as binding. As to conditions: 10 mM HEPES buffer (pH 7). As to the method:
Fluorescence titrations were carried out in aqueous HEPES buffer (10 mM, pH 7, 22 °C) unless stated otherwise. To a solution of the FAR (typically at 10–30 μM) was stepwise added a solution of the analyte (typically up to 2 mM) and the fluorescence spectra were recorded. The normalized emissions at 450 nm (FAR-1) or at 370 nm (FAR-2) were fitted with an equation for a 1 : 1 binding by a least-square fit. The resulting affinity constants are reported in Supplementary Table 1. Representative titration plots are shown in Supplementary Fig. 1. Note that the high CB8-dye binding affinities correspond to a near quantitative degree of host-dye complexation, i.e., quantitative formation of the FAR, such that the subsequent binding of the analyte can be treated independently.
As for `Oc1ccccc1O` [1,2-dihydroxybenzene], the “QE (quenching efficiency)” value is recorded as > 0.9. The same measure for `Oc1ccc(O)cc1` [1,4-dihydroxybenzene]: > 0.9; for `CCOc1ccc(O)cc1` [4-ethoxyphenol]: > 0.9; for `O=C(O)C(=O)Cc1ccc(O)cc1` [4-hydroxyphenylpyruvic acid]: > 0.9. The same measure for `CCc1ccc(O)cc1` [4Et-phenol, 4-ethylphenol]: 0.6; for `N[C@@H](Cc1c[nH]c2ccc(O)cc12)C(=O)O` [5HO-Trp, 5-hydroxy tryptophan]: > 0.9. The same measure for `O=C1CCC(=O)N1c1ccccc1` [N-phenylsuccinimide]: > 0.9; for `CC(=O)NC(Cc1c[nH]c2ccccc12)C(=O)O` (stereo not shown) [NAc-Trp]: > 0.9. As for `N[C@@H](Cc1ccccc1)C(=O)O` [Phe, phenylalanine], the “QE (quenching efficiency)” value was determined as 0.5. The same measure for `CNC(=C[N+](=O)[O-])NCCSCc1ccc(CN(C)C)o1` [Ranitidine, ranitidine, reference compound]: 0.2; for `N[C@@H](Cc1c[nH]c2ccccc12)C(=O)O` [Trp, tryptophan]: > 0.9. `NC(=O)C(N)Cc1c[nH]c2ccccc12` (stereo not shown) [TrpNH2, tryptophanamide]: the “QE (quenching efficiency)” value is > 0.9.

As for `COC(=O)[C@@H](N)Cc1c[nH]c2ccccc12` [TrpOMe, tryptophan methyl ester], the “QE (quenching efficiency)” value is listed as > 0.9. The same measure for `c1ccc2[nH]cnc2c1` [benzimidazole]: 0.8; for `NCCc1ccc(O)c(O)c1` [dopamine]: > 0.9; for `c1ccc2ccccc2c1` [naphthalene]: > 0.9. The same measure for `CC(=O)Nc1ccc(O)cc1` [paracetamol, reference compound]: > 0.9; for `OC[C@H]1O[C@@H](Oc2ccccc2)[C@H](O)[C@@H](O)[C@H]1O` [phenyl-β-D-galactopyranoside]: > 0.9. `c1ccc2ncccc2c1` [quinoline]: the “QE (quenching efficiency)” value was determined as 0.6.

Values taken from article PMC7363885, “Fluorescent artificial receptor-based membrane assay (FARMA) for spatiotemporally resolved monitoring of biomembrane permeability” (Communications Biology, 2020).
